The subject of the assay is co-cultured cells (ventricular cardiomyocytes with cortical neurons).

In the case of Tetrotodoxin, the “Observed effect on Co-culture Sub-pop 1” value (action potential, co-culture sub-population 1, optical mapping) is reported as “little to none”. For the same substance, the “Observed effect on Co-culture Sub-pop 2” value (action potential, co-culture sub-population 2, optical mapping) is given as “little to none”. Moreover, the “Expected effect on mature AP” value (predicted effect of channel blocker on mature action potential) is listed as “AP inhibition”. The “Expected effect on neonatal AP” value (predicted effect of channel blocker on neonatal action potential) is listed as “little to none”.

These data come from US20130046134A1, “METHODS OF GENERATINGENGINEEREDINNERVATEDTISSUE AND USES THEREOF” (published 2013).
